Compound potency records, mixed from different reports. Data source: NIAID ChemDB in PubChem.

All rows: whole-cell or culture tests; species: Herpes simplex virus 1; endpoint: EC50

An empty or dashed field is not shown. Conditions beyond the fields shown may differ between rows. ECn: concentration that inhibits the pathogen or its effect by n%.

{"SMILES": "O=c1[nH]c(=O)n(C2CC(O)C(CO)O2)cc1-c1ccc(Cl)s1", "strain or isolate": "KOS", "result": "0.02 µM"}
{"SMILES": "O=C1c2ccccc2C(=O)N1Cc1cc2c(cc1O)Sc1ccccc1N2C(Nc1ccccc1)c1ccc(-c2ccccc2)cc1", "strain or isolate": "753166", "read by": "cytopathic effect", "result": "7.8 µg/mL"}
{"SMILES": "O=C(c1ccc([N+](=O)[O-])cc1)n1c(-c2cccc([N+](=O)[O-])c2)nc2ccccc21", "strain or isolate": "KOS", "result": ">20 µg/mL"}
{"SMILES": "[N-]=[N+]=N[C@@H]1C[C@@H](CO)S[C@@H]1n1cnc2c(Cl)ncnc21", "result": ">100 µg/mL"}
{"SMILES": "Nc1ncc2c(ncn2COC(CO)CO)n1", "strain or isolate": "KOS", "read by": "cytopathic effect", "result": "0.2 µg/mL"}
{"SMILES": "CS/C=C/C(=O)NCCCCNC(=O)Cc1ccccc1", "read by": "plaque count", "result": "<20 µg/mL"}
{"SMILES": "O=c1[nH]c(=O)n([C@@H]2C[C@@H](O)[C@H](CO)O2)cc1I", "result": ">100 µM"}
{"SMILES": "O=C(NCc1ccc(Cl)cc1)c1c[nH]c2ccc(CCCO)cc2c1=O", "strain or isolate": "294", "read by": "plaque count", "result": "14 µM"}
{"SMILES": "Nc1nc2c(ncn2COC(CO)CO)c(=O)[nH]1", "strain or isolate": "03-16620", "read by": "PCR", "result": "41.5 µM"}
{"SMILES": "COc1ccc(-c2[nH]c3nc4c(ncn4COCCO)c(=O)n3c2-c2ccc(C(c3ccccc3)c3ccccc3)cc2)cc1", "strain or isolate": "F", "read by": "cytopathic effect", "result": ">16 µg/mL"}
{"SMILES": "C=CC(CO)(CO)CCn1cnc2c(N)ncnc21", "result": ">100 µg/mL"}
{"SMILES": "O=C(O)c1ccccc1-c1nc2ccccc2n1C(=O)c1ccc([N+](=O)[O-])cc1", "strain or isolate": "KOS", "result": ">100 µg/mL"}
{"SMILES": "CC1=C[C@H](n2cnc3c(N)ncnc32)C[C@]1(C)CO", "result": ">100 µg/mL"}
{"SMILES": "CC(=O)OCCOCn1cnc2c(=O)n3cc(-c4ccc5ccccc5c4)[nH]c3nc21", "strain or isolate": "KOS", "read by": "cytopathic effect", "result": ">16 µg/mL"}
{"SMILES": "[N-]=[N+]=N[C@H]1C[C@H](CO)SC1n1cnc2c(N)ncnc21", "result": ">100 µg/mL"}
{"SMILES": "CC1=C[C@H](n2ccc(=O)[nH]c2=O)C[C@]1(C)CO", "result": ">100 µg/mL"}
{"SMILES": "Nc1ncnc2c1ncn2[C@@H]1OCC(CO)=C1F", "result": ">100 µg/mL"}
{"SMILES": "O=C(c1ccncc1)n1c(-c2cccc(Cl)c2)nc2ccccc21", "strain or isolate": "KOS", "result": ">100 µg/mL"}
{"SMILES": "O=c1[nH]c(=O)n([C@H]2O[C@@H](CO)[C@H](O)[C@H]2O)cc1/C=C/Br", "result": ">100 µM"}
{"SMILES": "Nc1nc2c(ncn2[C@H]2C=C[C@@H](CO)[C@H](O)C2)c(=O)[nH]1", "strain or isolate": "KOS (TK-)", "result": "1.28 µg/mL"}
{"SMILES": "Clc1cccc(-c2nn3c(c2-c2ccnc(NC4CCCC4)n2)CC=[N+]=C3N2CCOCC2)c1", "read by": "hybridisation", "result": "0.2 µM"}
{"SMILES": "CC1=C[C@H](n2cnc3c(N)ncnc32)CC1(CO)CO", "result": ">100 µg/mL"}
{"SMILES": "O=c1c2ncn(COCCO)c2[nH]c2ncc(CO)n12", "strain or isolate": "F", "read by": "cytopathic effect", "result": ">3.2 µg/mL"}
{"SMILES": "Nc1ncc2ncn(/C=C3\\CC3CO)c2n1", "read by": "ELISA", "result": ">100 µM"}
{"SMILES": "O=c1c2ncn(COCCO)c2[nH]c2ncc(C(c3ccccc3)(c3ccccc3)c3ccccc3)n12", "strain or isolate": "F", "read by": "cytopathic effect", "result": ">16 µg/mL"}
{"SMILES": "CC(C)(C)NC1=[N+]=CCc2c(-c3ccnc(NC4CCCC4)n3)c(-c3ccc(F)cc3)nn21", "read by": "hybridisation", "result": "7 µM"}
{"SMILES": "O=c1[nH]c(=O)n(C2CC(O)C(CO)O2)cc1-c1ccc(Br)o1", "strain or isolate": "KOS", "result": "0.15 µM"}
{"SMILES": "CC(=O)NC1C(O)OC(CO)C(O)C1OC1OC(C(=O)[O-])C(OC2OC(CO)C(O)C(OC3OC(C(=O)[O-])C(O)C(O)C3O)C2NC(C)=O)C(O)C1O.[Na+].[Na+]", "strain or isolate": "McIntyre", "result": ">400 µg/mL"}
{"SMILES": "COc1ccc(-c2cn3c(=O)c4ncn(COC(CO)CO)c4nc3[nH]2)cc1", "strain or isolate": "VMW 1837", "read by": "cytopathic effect", "result": "0.04 µg/mL"}
{"SMILES": "Fc1ccc(-c2nn3c(c2-c2ccnc(NC4CCCC4)n2)CC=[N+]=C3N2CCCCC2)cc1", "read by": "hybridisation", "result": "1 µM"}
{"SMILES": "CC(C)c1ccc(-c2cc(-c3cn([C@H]4CC[C@H](O)[C@@H](CO)O4)c(=O)[nH]c3=O)on2)cc1", "result": "0.09 µg/mL"}
{"SMILES": "O=C(NCc1ccc(Cl)cc1)c1c[nH]c2c(F)cccc2c1=O", "strain or isolate": "6 isolates", "read by": "plaque count", "result": "22 µM"}
{"SMILES": "O=C(c1ccc([N+](=O)[O-])cc1)n1c(-c2ccccc2Cl)nc2ccccc21", "strain or isolate": "KOS", "result": ">100 µg/mL"}
{"SMILES": "CNc1ncnc2c1ncn2[C@@H]1S[C@@H](CO)C[C@@H]1N=[N+]=[N-]", "result": ">100 µg/mL"}
{"SMILES": "Cc1cn([C@H]2CC[C@@H](CO)O2)c(=S)[nH]c1=O", "strain or isolate": "KOS", "result": "0.28 µg/mL"}
{"SMILES": "Nc1ncc2ncn(/C=C3/CC3CO)c2n1", "read by": "ELISA", "result": ">100 µM"}
{"SMILES": "[N-]=[N+]=N[C@H]1C[C@H](CO)S[C@H]1n1ccc(N)nc1=O", "result": ">100 µg/mL"}

The first 3 rows once more:

SMILES	strain or isolate	read by	result
O=c1[nH]c(=O)n(C2CC(O)C(CO)O2)cc1-c1ccc(Cl)s1	KOS		0.02 µM
O=C1c2ccccc2C(=O)N1Cc1cc2c(cc1O)Sc1ccccc1N2C(Nc1ccccc1)c1ccc(-c2ccccc2)cc1	753166	cytopathic effect	7.8 µg/mL
O=C(c1ccc([N+](=O)[O-])cc1)n1c(-c2cccc([N+](=O)[O-])c2)nc2ccccc21	KOS		>20 µg/mL